Reference: PubChem BioAssay AID624099 (ICCB-Longwood, 2012)
Aim: 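Knock-downs relieving repression by E2 of an HPV18 LCR luciferase reporter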 (primary screen). Cells: human C33A cervical carcinoma cells (HPV-negative) stably expressing BPV1 E2 and an HPV18 LCR luciferase reporter. Reagents: siRNA pool against human genes, 40 nM. Timing: 72 h. Detection: 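HPV18 LCR reporter light per well, converted to plate-wise z-scores that exclude control wells, and averaged over triplicate plates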. Direction: mean z-score and z-score: higher = stronger reporter signal, weaker E2 silencing. Active means: 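Mean z ≥ 2 together with z ≥ 2 in two or more of the three replicates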.
The whole screen tested about 21,000 reagents; this is a random part of them. Of all reagents, 497 (2.4%) were called active. 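Higher z means weaker E2 silencing; only reporter increases were scored, and knock-downs that hurt cell survival may mask genuine repressor factors.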 Entries without a mark were called inactive. The numbers tell different reagents against one gene apart.

Silencing of YWHAQ (GeneID 10971) resulted in: mean z-score -0.29; z-score, replicate A = -0.26; z-score, replicate B = -0.73; z-score, replicate C = 0.11.
For LINC02724 (GeneID 100996455), the entry reads mean z-score -0.05; z-score, replicate A = -0.03; z-score, replicate B = -0.2; z-score, replicate C = 0.07.
Against SERINC5 (GeneID 256987), the values are mean z-score 0.23; z-score, replicate A = 0.28; z-score, replicate B = 0.25; z-score, replicate C = 0.17.
With knock-down of WASF1 (GeneID 8936), the record shows mean z-score 0.17; z-score, replicate A = -0.26; z-score, replicate B = 0.74; z-score, replicate C = 0.03.
Depletion of MAGED1 (GeneID 9500) resulted in: mean z-score -1; z-score, replicate A = -0.81; z-score, replicate B = -1.14; z-score, replicate C = -1.04.
With knock-down of IKBKG (GeneID 8517), the record shows mean z-score 2.09 (active); z-score, replicate A = 2.19; z-score, replicate B = 1.88; z-score, replicate C = 2.2.
After knock-down of NCCRP1 (GeneID 342897), the record shows mean z-score -0.66; z-score, replicate A = -0.67; z-score, replicate B = -0.42; z-score, replicate C = -0.89.
After knock-down of ELAC1 (GeneID 55520), the record shows mean z-score -0.63; z-score, replicate A = -0.51; z-score, replicate B = -0.84; z-score, replicate C = -0.55.
GOLGA6B (GeneID 55889) showed mean z-score 0.38; z-score, replicate A = 0.28; z-score, replicate B = 0.31; z-score, replicate C = 0.55.
Silencing of DRC11L (GeneID 392843) came out at: mean z-score -0.76; z-score, replicate A = -0.65; z-score, replicate B = -0.76; z-score, replicate C = -0.86.
Silencing of ZNF442 (GeneID 79973) came out at: mean z-score -0.18; z-score, replicate A = -0.1; z-score, replicate B = 0.25; z-score, replicate C = -0.68.
With knock-down of GRXCR1 (GeneID 389207), the record shows mean z-score 0.7; z-score, replicate A = 0.98; z-score, replicate B = 0.31; z-score, replicate C = 0.81.
TMEM45B (GeneID 120224) gave mean z-score -0.32; z-score, replicate A = -0.25; z-score, replicate B = -0.5; z-score, replicate C = -0.23.
KIF23 (GeneID 9493) gave mean z-score -0.06; z-score, replicate A = -0.02; z-score, replicate B = 0; z-score, replicate C = -0.16.

An excerpt from above, limited to “mean z-score”:
SERINC5 (GeneID 256987): 0.23
WASF1 (GeneID 8936): 0.17

Additional entries:
RNASEH2C (GeneID 84153) gave mean z-score -0.29; z-score, replicate A = -0.18; z-score, replicate B = -0.09; z-score, replicate C = -0.58.
LOC401324 (GeneID 401324) #1 scored mean z-score 0.14; z-score, replicate A = 0.18; z-score, replicate B = -0.16; z-score, replicate C = 0.39.
Against LOC401324 (GeneID 401324) #2, the values are mean z-score 0.47; z-score, replicate A = 0.41; z-score, replicate B = 0.61; z-score, replicate C = 0.39.
Against MTM1 (GeneID 4534), the values are mean z-score -0.88; z-score, replicate A = -0.9; z-score, replicate B = -0.94; z-score, replicate C = -0.79.
ZNF22 (GeneID 7570) showed mean z-score -0.81; z-score, replicate A = -0.38; z-score, replicate B = -1.2; z-score, replicate C = -0.85.
Silencing of NOMO2 (GeneID 283820) resulted in: mean z-score 0.05; z-score, replicate A = -0.13; z-score, replicate B = -0.19; z-score, replicate C = 0.46.
After knock-down of H2AC20 (GeneID 8338), the screen gave mean z-score -1.08; z-score, replicate A = -1.39; z-score, replicate B = -0.92; z-score, replicate C = -0.94.
